The experiment has as its target recombinant human integrin αvβ3 extracellular domains (R&D Systems) (human) (UniProt P06756).

On to MBP-D1D5 Invasin D911A, for which the half-maximal effective concentration (EC50) is over 1 µM.

For the origin of these results see US20190106463A1.
